# Assay results published in article PMC8642242.
# Target: SARS-CoV-2 NTD (1–290), strain USA/IL1/2020, biotinylated (SARS-CoV-2) (UniProt P0DTC2)
# Assay: BLI
Substance,Kd,koff
WRAIR-2025 (human IgG1) (from UniProt P01857),< 0.001 nM,< 1e-07 s⁻¹
WRAIR-2039 (human IgG1) (from UniProt P01857),< 0.001 nM,< 1e-07 s⁻¹
WRAIR-2004 (human IgG1) (from UniProt P01857),< 0.001 nM,< 1e-07 s⁻¹

# Target: SARS-CoV-2 RBD (318–514), strain USA/IL1/2020, biotinylated (SARS-CoV-2) (UniProt P0DTC2)
# Assay: BLI
Substance,Kd,koff
WRAIR-2123 (human IgG1) (from UniProt P01857),0.0109 nM,2.98e-06 s⁻¹
WRAIR-2151 (human IgG1) (from UniProt P01857),< 0.001 nM,< 1e-07 s⁻¹
WRAIR-2165 (human IgG1) (from UniProt P01857),0.0109 nM,2.16e-06 s⁻¹
WRAIR-2063 (human IgG1) (from UniProt P01857),< 0.001 nM,< 1e-07 s⁻¹
WRAIR-2173 (human IgG1) (from UniProt P01857),0.0212 nM,5.23e-06 s⁻¹
